Measurements taken from US20240050395A1 (priority 2020, published 2024).

Legend:
[1] = test system: tumor cells; details: read-out: effective inhibition concentration; most tumor cells, 72 h
[2] = test system: HT-29; details: read-out: AbsIC50; Colon cancer, cultured for 72 h
[3] = test system: Daudi; details: Leukemia, cultured for 72 h
[4] = test system: U-2OS; details: read-out: AbsIC50; Osteosarcoma, cultured for 72 h
[5] = test system: SK-OV-3; details: read-out: AbsIC50; Ovarian cancer, cultured for 72 h
[6] = test system: HCoV229E
[7] = test system: ZR-75-1; details: Breast ductal carcinoma, cultured for 72 h
[8] = test system: HepG2; details: Liver cancer, cultured for 72 h
[9] = test system: LOVO; details: Colon cancer, cultured for 72 h
[10] = test system: HCC827; details: Lung cancer, cultured for 72 h

| Structure (SMILES) | IC50 [1] | IC50 [2] | IC50 ([3]; read-out: AbsIC50) | IC50 [4] | IC50 [5] | EC50 [6] | IC50 [7] | IC50 [8] | IC50 [9] | IC50 [3] | IC50 [10] |
| --- | --- | --- | --- | --- | --- | --- | --- | --- | --- | --- | --- |
| [2H]c1ccc([As]=O)cc1 (centres unmarked) | > 200 nM | > 200 nM | 97.7 nM | 71.2 nM | > 200 nM |  |  |  |  |  |  |
| O=[As]c1ccccc1 (centres unmarked) |  |  |  |  |  | 55.4 nM | 28.5 nM | 105 nM | > 200 nM | 63.4 nM | 181 nM |

Where two headings read alike, the source gives them in different places.
